From US20120207760A1, “Compositions and Methods for the Therapy and Diagnosis of Influenza” (THERACLONE SCIENCES, published 2012) come the findings set out here.

The target in assay [1] is T1, M2 variant of A/Hong Kong/1180/1999 (H3N2), expressed on 293 cells (influenza A virus A/Hong Kong/1180/99 …).
T1 chain: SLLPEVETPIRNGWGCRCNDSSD
Kind of assay: flow cytometry on 293 cells transfected with natural M2 variants (FIG. 19b). A general note: A flow cytometer gives signals particle by particle.

Assay [2] has as its target T2, M2 variant of A/Hong Kong/1144/1999 (H3N2), expressed on 293 cells (influenza A virus A/Hong Kong/1144/99 …).
T2 chain: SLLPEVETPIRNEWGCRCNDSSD
The assay is described as above.

B1: TCN-031 (23K12) (antibody, V domains shown)
VH: EVQLVESGGGLVQPGGSLRISCAASGFTVSSNYMSWVRQAPGKGLEWVSVIYSGGSTYYADSVKGRFSFSRDNSKNTVFLQMNSLRAEDTAVYYCARCLSRMRGYGLDVWGQGTTVTVSS
VL: DIQMTQSPSSLSASVGDRVTITCRTSQSISSYLNWYQQKPGKAPKLLIYAASSLQSGVPSRFSGSGSGTDFTLTISGLQPEDFATYYCQQSYSMPAFGQGTKLEIK
As to B1, the binding result in assay [1] and in assay [2] was “binds” throughout.

B2: TCN-032 (8I10) (antibody, V domains shown)
VH: QVQLQESGPGLVKPSETLSLTCTVSGSSISNYYWSWIRQSPGKGLEWIGFIYYGGNTKYNPSLKSRVTISQDTSKSQVSLTMSSVTAAESAVYFCARASCSGGYCILDYWGQGTLVTVSS
VL: DIQMTQSPSSLSASVGDRVTITCRASQNIYKYLNWYQQRPGKAPKGLISAASGLQSGVPSRFSGSGSGTDFTLTITSLQPEDFATYYCQQSYSPPLTFGGGTRVEIK
For B2, the binding result in assay [1] and in assay [2] was “binds” throughout.
